Article PMC8883573, “New Insights Into the Function of Flavohemoglobin in Mycobacterium tuberculosis: Role as a NADPH-Dependent Disulfide Reductase and D-Lactate-Dependent Mycothione Reductase” (Frontiers in Cellular and Infection Microbiology, 2022)

System: O=C(O)c1cc(SSc2ccc([N+](=O)[O-])c(C(=O)O)c2)ccc1[N+](=O)[O-]
Experiment: purified protein
Conditions: pH 7.0

Q: “MtbFHb (Mycobacterium tuberculosis H37Rv)” was tested. Which Km did it give?
A: Its Km is 98.5 ± 6.8 µM.
